Measured values from several laboratories, pooled; numbers as filed in NIAID ChemDB.

Shared fields: whole-cell or culture tests; agent: Parainfluenza virus; cells: VERO; endpoint: EC50

a–b is a range or a potency band. Lines come from different laboratories, so protocols vary. ECn is the concentration giving n% inhibition of infection, replication or growth.

smiles | strain | read by | result
NC(=O)c1ccnc([C@@H]2O[C@H](CO)[C@@H](O)[C@H]2O)c1 | TYPE 3 | cytopathic effect | >400 µg/mL
NC(=O)c1ncn([C@@H]2O[C@H](CO)[C@@H](O)[C@H]2O)c1C#Cc1ccccc1 | TYPE 3 | cytopathic effect | >400 µg/mL
Nc1ncnc2c1ccn2[C@@H]1O[C@H](CO)[C@H](O)[C@H]1O | TYPE 3 | cytopathic effect | ≥40 µg/mL
Nc1nc2c(nnn2C[C@H]2CC[C@@H](CO)C2)c(=O)[nH]1 | TYPE 3 | cytopathic effect | >200 µg/mL
Nc1nccc2c1ncn2[C@@H]1O[C@H](CO)[C@@H](O)[C@H]1O | TYPE 3 | cytopathic effect | 2 µg/mL
COc1cc(NC(=O)Nc2cccc(CNC(=O)O[C@H]3CCOC3)c2)ccc1-c1cnco1 | TYPE 3 | plaque count | 13.8 µM
Nc1ncnc2c1ncn2C[C@H](O)CO | TYPE 3 | cytopathic effect | 70 µg/mL
Cc1cn([C@H]2C[C@@H](CO)[C@H](O)C2)c(=O)[nH]c1=O | TYPE 3 | cytopathic effect | >400 µg/mL
NC(=O)c1c[se]c([C@@H]2O[C@H](CO)[C@@H](O)[C@H]2O)n1 | TYPE 3/C243 | cytopathic effect | 1 µg/mL
C/C=C/Cc1cn([C@@H]2O[C@H](CO)[C@@H](O)[C@H]2O)c2ncnc(N)c12 | TYPE 3 | cytopathic effect | 1 µg/mL
Nc1nccc2c1ncn2[C@@H]1C[C@H](CO)[C@@H](O)[C@H]1O | VR-93 (TYPE 3) | cytopathic effect | 0.7 µg/mL
Nc1ncnc2c1c(Br)cn2[C@@H]1O[C@H](CO)[C@@H](O)[C@H]1O | TYPE 3 | cytopathic effect | 0.07 µg/mL
Nc1ncnc2c1c(Br)cn2[C@@H]1O[C@H](CO)[C@@H](O)[C@H]1O | TYPE 3 | cytopathic effect | 0.02 µg/mL
C#Cc1c(C(N)=O)ncn1[C@@H]1O[C@H](CO)[C@@H](O)[C@H]1O | TYPE 3 | cytopathic effect | 1 µg/mL
Nc1nccc2c1ncn2[C@@H]1C[C@H](CO)[C@@H](O)[C@H]1O | TYPE 3 | cytopathic effect | 1 µg/mL
Nc1ncnc2c1ncn2[C@@H]1C=C(CO)[C@@H](O)[C@H]1O | TYPE 3 | cytopathic effect | 0.2 µg/mL
C#Cc1c(C(N)=O)ncn1[C@@H]1O[C@H](CO)[C@@H](O)[C@H]1O | TYPE 3/HA-1 C243 | plaque count | 0.58 µg/mL
O=c1[nH]cnc2c1ncn2[C@@H]1C=C(CO)[C@@H](O)[C@H]1O | TYPE 3 | cytopathic effect | 2 µg/mL
Nc1ncnc2c1ncn2C[C@H](O)CO | TYPE 3 | cytopathic effect | 20 µg/mL
Cc1cn([C@@H]2C[C@H](CO)[C@@H](O)C2)c(=O)[nH]c1=O | TYPE 3 | cytopathic effect | >100 µg/mL
Nc1ncnc2c1ncn2C[C@H](O)CO | TYPE 3 | cytopathic effect | 7 µg/mL
Cc1cn([C@H]2C[C@H](O)[C@@H](CO)[C@@H]2C)c(=O)[nH]c1=O | TYPE 3 | cytopathic effect | >400 µg/mL
NC(=O)c1ncn([C@@H]2O[C@H](CO)[C@@H](O)[C@H]2O)n1 | TYPE 3 | cytopathic effect | 48 µg/mL
Nc1ncnc2c1ncn2[C@H]1[C@H](O)[C@H](O)[C@]2(CO)O[C@H]12 | TYPE 3 | cytopathic effect | 0.2 µg/mL
COc1c(C)c2c(c(O)c1CC(=O)O)C(=O)OC2 | TYPE 2/GREER | plaque count | 0.9 µg/mL
Nc1nc(Cl)c2ncn(C[C@H]3CC[C@@H](CO)C3)c2n1 | TYPE 3 | cytopathic effect | >40 µg/mL
CCCC#Cc1c(C(N)=O)ncn1[C@@H]1O[C@H](CO)[C@@H](O)[C@H]1O | TYPE 3 | cytopathic effect | >200 µg/mL
Nc1ncnc2c1ccn2[C@@H]1O[C@H](CO)[C@@H](O)[C@H]1O | TYPE 3 | cytopathic effect | >0.1 µg/mL
Nc1ncnc2c1ncn2[C@@H]1C=C(CO)[C@@H](O)[C@H]1O | TYPE 3 | cytopathic effect | 0.07 µg/mL
CCN1C[C@]2(CO)CC[C@H](OC)[C@]34C5CC6[C@H](OC)C5[C@](O)(C[C@@H]6OC)[C@@](O)(C13)[C@@H](OC)[C@H]24 | TYPE 3 | cytopathic effect | 8–32 µg/mL
COc1cc(O)c2c(=O)c3cccc(O)c3n(C)c2c1OC | TYPE 2 | plaque count | >20 µg/mL
Nc1nccc2c1ncn2[C@@H]1C[C@H](CO)[C@@H](O)[C@H]1O | TYPE 3 | cytopathic effect | 0.2 µg/mL

Again, the opening 4 rows:

smiles,strain,read by,result
NC(=O)c1ccnc([C@@H]2O[C@H](CO)[C@@H](O)[C@H]2O)c1,TYPE 3,cytopathic effect,>400 µg/mL
NC(=O)c1ncn([C@@H]2O[C@H](CO)[C@@H](O)[C@H]2O)c1C#Cc1ccccc1,TYPE 3,cytopathic effect,>400 µg/mL
Nc1ncnc2c1ccn2[C@@H]1O[C@H](CO)[C@H](O)[C@H]1O,TYPE 3,cytopathic effect,≥40 µg/mL
Nc1nc2c(nnn2C[C@H]2CC[C@@H](CO)C2)c(=O)[nH]1,TYPE 3,cytopathic effect,>200 µg/mL